From article PMC9453709, “Structural basis of a two-antibody cocktail exhibiting highly potent and broadly neutralizing activities against SARS-CoV-2 variants including diverse Omicron sublineages” (Cell Discovery, 2022) come the findings set out here.

Assay [1] addresses SARS-CoV-2 wild-type receptor-binding domain (WT-RBD) (Severe acute respiratory syndrome …, UniProt P0DTC2). The experiment in a line: cell-based or functional assay.
The target in assay [2] is SARS-CoV-2 wild-type spike N-terminal domain (WT-NTD) (SARS-CoV-2 wild type (WIV04/Wuhan-Hu-1), UniProt P0DTC2). In words: ELISA. Particulars: both partners purified. For orientation: ELISA stands for enzyme-linked immunosorbent assay.

B1: D2, recombinant human immunoglobulin G1 (IgG1) (antibody, V domains shown)
VH: EVQLVESGGGLVQPGRSLTLSCGASGFTFEDYAMHWVRQAPGKGLEWVSGIDWNSGVIGYADSVKGRFIISRDNAKNSLYLHMRSLTAEDTALYYCAKDVYSESGSGSYYDYWGQGTLVTVSS
VL: QSVLTQPPSVSAAPGQKVAISCSGSTSNIGDNFVSWYQQFPGTAPKLLLYDDARRPSGIPDRFSGSKSGTSATLGITGLQTGDEAVYFCSTWDNSLNVVLFGGGTKLTVL
Regarding B1, the “IC50 of neutralisation of authentic SARS-CoV-2 in Vero E6 cells” value in assay [1] stood at 0.14 µg/mL. Also, the binding result in assay [2] was “no binding (tested: 5 μg/mL)”.
